Anti-infective test results gathered from many reports (values: NIAID ChemDB through PubChem).

All rows: host cell toxicity; cell line: VERO; measure: CC50

CCn is the concentration with n% toxicity to the cells. Neighbouring rows are from separate reports. Blank or dashed fields: not listed here.

compound,method,result
O=[N+]([O-])c1ccc(NN=C2/C(=C/c3ccco3)CNC/C2=C\c2ccco2)c([N+](=O)[O-])c1,MTT,394 µg/mL
CCOC(=O)CCc1ccccc1O[P@](=O)(N[C@@H](C)C(=O)OCC)OC[C@H]1O[C@@H](n2cnc3c(N)nc(N)nc32)[C@](C)(O)[C@@H]1O,,>100 µM
Nc1ccn([C@H]2C=C(F)[C@@H](CO)S2)c(=O)n1,MTT,>100 µM
O=C1NC(=O)c2c1c1c3ccc(F)cc3[nH]c1c1[nH]c3cc(F)ccc3c21,,58 µM
CCOC(=O)c1cc(-c2ccc(-c3ccccc3)cc2)on1,,102 µM
Cc1cc(=O)c2c(O)c3c(O)cc(O)c4c5c(O)cc(O)c6c(O)c7c(=O)cc(C)c8c1c2c(c34)c(c65)c78,,10 µg/mL
Cc1ccc(/C=C/C(=O)/C=C/c2ccc(C)o2)o1,,8.11 µg/mL
CCn1cc(C(=O)O)c(=O)c2cc(F)c(N3CC(C)N(C(=O)C4NC(=O)NC(=O)C4[N+](=O)[O-])C(C)C3)c(F)c21,MTT,<116.5 µM
CN(C)c1cccc2c(Cl)c(Cl)c3cccc(N(C)C)c3c12,,>10 µg/mL
c1csc(-c2nnc(Cc3cccc4ccccc34)o2)c1,fluorescence,>100 µM
O=c1c(O)c(-c2ccccc2)oc2cc(O)cc(O)c12,,15 µg/mL
O=c1cnn([C@@H]2O[C@H](CO)[C@@H](O)[C@H]2O)c(=O)[nH]1,,>100 µg/mL
Cc1[nH]nc(C(=O)N/N=C/c2ccccc2Cl)c1N=NN(C)C,,0.65 µg/mL
Nc1nc(=O)n([C@@H]2O[C@H](CO)[C@@H](O)[C@@H]2F)cc1I,,5 µM
COc1cc(NC(=O)Nc2cccc(CNC(=O)O[C@H]3CCOC3)c2)ccc1-c1cnco1,MTT,>31 µM
CO[C@H]1/C=C/O[C@@]2(C)Oc3c(C)c(O)c4c(O)c(c(/C=N/N5CCN(C)CC5)c(O)c4c3C2=O)NC(=O)/C(C)=C\C=C\[C@H](C)[C@H](O)[C@@H](C)[C@@H](O)[C@@H](C)[C@H](OC(C)=O)[C@@H]1C,MTT,608 µM
O=C(NNC=NCc1ccccc1)c1ccncc1,,>10 µg/mL
Nc1nc2c(ncn2C2CC(/C=C/P(=O)(O)O)(C(F)(F)F)CO2)c(=O)[nH]1,MTT,>100 µM
CCOC(=O)CCc1ccccc1O[P@@](=O)(N[C@@H](C)C(=O)OCC)OC[C@H]1O[C@@H](n2cnc3c(N)nc(N)nc32)[C@](C)(O)[C@@H]1O,,>100 µM
Fc1ccc(N=C2/C(=C/c3ccco3)CNC/C2=C\c2ccco2)cc1,MTT,152 µg/mL
CCOC(=O)c1cc(-c2cc3cccc(OC)c3o2)on1,,>128 µM
CCOC(=O)C(NC(=O)c1ccccc1)(N1CCN(c2cc3c(cc2F)c(=O)c(C(=O)O)cn3C2CC2)CC1)C(F)(F)F,,>62.5 µg/mL
CO/N=C1/C(=O)N(CCn2cc(CN3CCN(c4cc5c(cc4F)c(=O)c(C(=O)O)cn5C4CC4)CC3)nn2)c2ccc(C)cc21,MTT,19.9 µM
CC1=C(C)[C@](CO)(c2ccccc2)C[C@H]1n1cnc2c(N)ncnc21,,>100 µg/mL
CC(C)Cn1c2ccccc2c2c3c(c4c5ccccc5[nH]c4c21)C(=O)NC3=O,,<8 µM
Nc1ncnc2c1ncn2[C@@H]1C=C(CO)[C@@H](O)[C@H]1O,,0.25 µg/mL
CCOC(=O)c1noc(/C=C/c2ccc(Cl)cc2)c1C(=O)c1ccccc1,,>128 µM
Cc1ccc(NNc2cc(=O)[nH]c(=O)[nH]2)cc1Cl,,4.7 µg/mL
CC[C@H]1OC(=O)[C@H](C)[C@@H](O[C@H]2C[C@@](C)(OC)[C@@H](O)[C@H](C)O2)[C@H](C)[C@@H](O[C@@H]2O[C@H](C)C[C@H](N(C)C)[C@H]2O)[C@](C)(OC)C[C@@H](C)C(=O)[C@H](C)[C@@H](O)[C@]1(C)O,XTT,>300 µg/mL
Nc1nc2c(ncn2[C@H]2C=C(F)[C@@H](CO)S2)c(=O)[nH]1,MTT,>100 µM
COc1ccc(-c2cc(=O)c3c(O)cc(O)cc3o2)cc1,,20 µg/mL
Cn1c2ccccc2c2c3c(c4c5ccccc5[nH]c4c21)C(=O)NC3=O,,>31 µM
COC(=O)c1noc(/C=C/c2ccccc2)c1C(=O)c1ccccc1,,88.07 µM
CO[C@H]1/C=C/O[C@@]2(C)Oc3c(C)c(O)c4c(O)c(c(/C=N/N(c5ccccc5)c5ccccc5)c(O)c4c3C2=O)NC(=O)/C(C)=C\C=C\[C@H](C)[C@H](O)[C@@H](C)[C@@H](O)[C@@H](C)[C@H](OC(C)=O)[C@@H]1C,,6.91 µg/mL
CC(C)OC(=O)CCc1ccccc1O[P@](=O)(N[C@@H](C)C(=O)OC(C)C)OC[C@H]1O[C@@H](n2cnc3c(N)nc(N)nc32)[C@](C)(O)[C@@H]1O,,>100 µM
Nc1nccc2c1ncn2[C@@H]1C=C(CO)[C@@H](O)[C@H]1O,neutral red,2.6 µg/mL
COc1ccc(-c2cc3c(c(=O)o2)C[C@H]2[C@@](C)(CC[C@@]4(O)C(C)(C)OC(=O)CC[C@]24C)O3)cc1,MTT,200 µg/mL
Cc1cc2nc3ccc(N=Nc4ccc(N(C)C)cc4)cc3n(-c3ccccc3)c-2cc1=N,,0.08 µg/mL
CCc1cn([C@H]2C[C@H](N=[N+]=[N-])[C@@H](CO)O2)c(=O)[nH]c1=O,,~2000 µM
Cc1ccc(C(=O)Nc2ccc(S(=O)(=O)O)c3cc(S(=O)(=O)O)cc(S(=O)(=O)O)c23)cc1NC(=O)c1cccc(NC(=O)Nc2cccc(C(=O)Nc3cc(C(=O)Nc4ccc(S(=O)(=O)O)c5cc(S(=O)(=O)O)cc(S(=O)(=O)O)c45)ccc3C)c2)c1,,80 µg/mL
CCOC(=O)c1noc(/C=C/c2cccc3ccccc23)c1C(=O)c1ccccc1,,>128 µM
CCn1c2ccccc2c2c3c(c4c5ccccc5[nH]c4c21)C(=O)NC3=O,,>125 µM
CCOC(=O)c1noc(/C=C/c2ccc(-c3ccccc3)cc2)c1C(=O)c1ccccc1,,111.5 µM
O=C1NC(=O)[C@H](c2c[nH]c3ccccc23)[C@H]1c1c[nH]c2ccccc12,,101 µM
CCOC(=O)c1noc(/C=C/c2ccccc2)c1C(=O)c1ccccc1,,95.17 µM
NC(=O)c1[nH]nc([C@@H]2O[C@H](CO)[C@@H](O)[C@H]2O)c1O,neutral red,19 µg/mL
CCCOc1ccc(Nc2cc(C)nc3ccc(Cl)cc23)cc1,,>120 µM
Cc1ccc2nc(Nc3ccc(Cl)cc3)cc(C(O)C3CCCCN3)c2c1,,4.1 µg/mL
CC1=C(C)[C@](CO)(c2ccccc2)C[C@H]1n1ccc(N)nc1=O,,>100 µg/mL
CN1C(=O)c2c(c3c4ccccc4[nH]c3c3[nH]c4ccccc4c23)C1=O,,~100 µM
Nc1ncnc2c1ncn2CCOCP(=O)(O)O,MTT / absorbance,30 µM
COc1c(N2CCN(C(=O)C3NC(=O)NC(=O)C3[N+](=O)[O-])C(C)C2)c(F)cc2c(=O)c(C(=O)O)cn(C3CC3)c12,MTT,>111.5 µM
COc1ccc2c(c1)Sc1c(ccc3ccccc13)N2CCCN(C)C,,6 µg/mL
C/C(=N\NC(=O)c1ccncc1)c1ccc(NC(=S)Nc2ccccc2)cc1,,160 µM
O=C(N/N=C/NNC(=O)c1ccncc1)c1ccncc1,,>62.5 µg/mL
Cc1c2ccncc2c(C)c2c1sc1ccccc12,,1.93 µg/mL
Nc1nncc2c([C@H]3CC[C@@H](/C=C/P(=O)(O)O)C3(F)F)c[nH]c12,MTT,36 µM
CCOC(=O)CCc1ccccc1OP(=O)(N[C@@H](C)C(=O)OC(C)C)OC[C@H]1O[C@@H](n2cnc3c(N)nc(N)nc32)[C@](C)(O)[C@@H]1O,,>100 µM
N#Cc1c(Br)n([C@@H]2O[C@H](CO)[C@@H](O)[C@H]2O)c2ncnc(N)c12,neutral red,10.6 µg/mL
O=c1[nH]cnc2c1ncn2[C@@H]1C=C(F)[C@H](CO)S1,MTT,>100 µM
O=C1NC(=O)C(c2c[nH]c3ccccc23)C1c1c[nH]c2ccccc12,,34 µM
C#Cc1c(C(N)=O)ncn1[C@@H]1O[C@H](CO)[C@@H](O)[C@H]1O,MTT / neutral red,4.1 µg/mL
Nc1ncnc2c1ncn2[C@@H]1C=C[C@@H](O)[C@H]1O,,1.1 µg/mL
Nc1ccn([C@@H]2C=C(F)[C@H](CO)S2)c(=O)n1,MTT,>100 µM
O=C1NC(=O)c2c1c1c3cc(O)ccc3[nH]c1c1[nH]c3ccc(O)cc3c21,,>31 µM
CCN(CC)CCNc1ccc(C)c2sc3ccc(O)cc3c(=O)c12.I,,0.81 µg/mL
Nc1nc2c(ncn2C2CC(CCP(=O)(O)O)(C(F)(F)F)CO2)c(=O)[nH]1,MTT,>100 µM
O=C1NC(=O)C([N+](=O)[O-])C(C(=O)N2CCN(c3cc4c(cc3F)c(=O)c(C(=O)O)cn4C3CC3)CC2)N1,MTT,>121 µM
O=[N+]([O-])c1ccc(CN2CC3CN(c4cccc(C(F)(F)F)c4)CC3C2)o1,MTT,>64 µg/mL
CC(C)OC(=O)c1cc(-c2ccc(-c3ccccc3)cc2)on1,,>128 µM
C/C(=N\NC(=O)c1ccncc1)c1ccc(NC(=S)Nc2ccc(C)cc2)cc1,,155 µM
O=C1C=CN([C@@H]2O[C@H](CO)[C@@H](O)[C@H]2O)C(=O)C1,neutral red,320 µg/mL
CC1CCc2ccccc2N1Cc1nc(-c2ccsc2)no1,fluorescence,89.3 µM
O=C(NN1C(=O)CS(=O)(=O)C1c1ccc(C(F)(F)F)cc1)c1ccncc1,,>62.5 µg/mL
CCc1nc2ccc(Cl)cn2c1C(=O)NCc1ccc(N2CCC(c3ccc(OC(F)(F)F)cc3)CC2)cc1,luminescence,>100 µM
Cc1ccc2c(c1)C(=O)C(=O)N2CCn1cc(CN2CCN(c3cc4c(cc3F)c(=O)c(C(=O)O)cn4C3CC3)CC2)nn1,MTT,167 µM
COC(=O)[C@]1(Cc2ccc3c(c2)CCC(C)(C)O3)OC(=O)C(O)=C1c1ccc(O)cc1,MTT,100 µg/mL
CCOC(=O)C(NC(=O)CC)(N1CCN(c2cc3c(cc2F)c(=O)c(C(=O)O)cn3C2CC2)CC1)C(F)(F)F,,>62.5 µg/mL
CC(C)(C)c1cccc(N2CC3CN(Cc4ccc([N+](=O)[O-])o4)CC3C2)c1,MTT,>64 µg/mL
O=C1NOCC1N=Cc1cc(Cl)ccc1O,,39.34 µg/mL
c1coc(-c2nnc(SCc3cccc4ccccc34)o2)c1,fluorescence,>100 µM
NC(=S)N/N=C/c1cn(Cc2ccccc2)c2ccccc12,,7.2 µg/mL
O=c1cnn([C@@H]2O[C@H](CO)[C@@H](O)[C@H]2O)c(=O)[nH]1,neutral red,157 µg/mL
CN(C)CCCNc1ccc2ncn3c4ccccc4c(=O)c1c23,,3.92 µg/mL
C/C(=N\NC(=O)c1ccncc1)c1ccc(NC(=S)Nc2ccc(Br)cc2)cc1,,133 µM
CC(=O)Nc1c2sscc-2n(C)c1=O,,0.4 µg/mL
Nc1ccn([C@@H]2C=C(CO)[C@@H](O)[C@@H]2O)c(=O)n1,neutral red,>32 µg/mL
C=C1C(=O)N2c3ccccc3C(C)(C)C2(S)C(=O)N1C,,>62.5 µg/mL
O=c1ccn([C@@H]2C=C(F)[C@H](CO)S2)c(=O)[nH]1,MTT,>100 µM
COc1ccc(-c2nc3c(=O)n(C)c(=O)nc-3n(C)n2)cc1OC,,1.09 µg/mL
OC1/C(=C/c2ccco2)CNC/C1=C\c1ccco1,MTT,400 µg/mL